Compound potency records, mixed from different reports. Data source: NIAID ChemDB in PubChem.

All rows: tests in culture; species: Mycobacterium avium

ECn is the concentration giving n% inhibition of infection, replication or growth. Neighbouring rows are from separate reports. An empty or dashed field is not shown.

SMILES	conditions	strain	method	endpoint	mutations	value
c1ccc(-c2ccc(CNc3ccccc3N3CCSCC3)cc2)cc1	-	103317	-	MIC	-	>16 µg/mL
CCCCCCOc1ccc(NC(=O)OCCN2CCCCC2)cc1	-	MY330/88	-	MIC	-	32 µM
O=C(NCc1ccc(Cl)c(Cl)c1)c1ncccc1O	-	CNCTC MY330/88	-	MIC	-	32 µM
Cc1cn2c(C(=O)NCc3ccc(Oc4ccc(C(F)(F)F)cc4)cc3)c(C)nc2s1	-	101	resazurin	MIC	-	<2 µM
CC(=O)NC[C@H]1CN(c2ccc(N3CCN(c4ccc([N+](=O)[O-])s4)CC3)c(F)c2)C(=O)O1	-	ATCC1723	-	MIC	-	0.25 µg/mL
Cc1ccc2nc(SCc3c(F)cccc3[N+](=O)[O-])[nH]c2c1	-	MY330/88	-	MIC	-	125 µM
CC[C@H]1OC(=O)[C@H](C)C(=O)[C@H](C)[C@@H](O[C@@H]2O[C@H](C)C[C@H](N(C)C)[C@H]2O)[C@](C)(OC)C[C@@H](C)C(=O)[C@H](C)[C@H]2N(NCCCc3ccnc4ccccc34)C(=O)O[C@]12C	-	Isolate 1295	-	MIC	-	2.5 µg/mL
O=C(Nc1ccc(Br)cc1)c1ncccc1S	-	CNCTC MY330/88	-	MIC	-	16 µM
CS(C)=O	-	104	resazurin	MIC	Gentamicin-resistant	>1 µg/mL
COc1ccc(NC(=O)c2ncccc2S)cc1	-	CNCTC MY330/88	-	MIC	-	16 µM
CCCCCOc1ccccc1NC(=O)OCCN1CCOCC1	-	MY330/88	-	MIC	-	125 µM
Cc1ccc2nc(SCc3ccc(Cl)c(Cl)c3)[nH]c2c1	-	MY330/88	-	MIC	-	32 µM
CC(C)N=c1cc2n(-c3ccc(Cl)cc3)c3ccccc3nc-2cc1Nc1ccc(Cl)cc1	-	ATCC	-	MIC	-	1 µg/mL
O=C(NCc1ccccn1)c1ccc(Cl)cc1O	14 d	ATCC 25291	-	MIC	-	500 µM
O=c1[nH]c(=O)n([C@H]2C[C@H](O)[C@@H](CO)O2)cc1/C=C/Br	-	ATCC 25291	-	EC50	-	>50 µg/mL
CCOc1c(N2CCC(C(C)(C)N)C2)c(F)cc2c(=O)c(C(=O)O)cn(C3CC3)c12	-	RG3	-	MIC	-	0.25 µg/mL
Cc1ccc2nc(SCc3cc(C(F)(F)F)cc(C(F)(F)F)c3)[nH]c2c1	-	MY330/88	-	MIC	-	125 µM
Cc1ccc2nc(C)c(C(=O)NCc3ccc(C(F)(F)F)cc3)n2c1	-	104	resazurin	MIC	Gentamicin-resistant	0.0156 µg/mL
Cc1cccc(C(=O)NCc2ccccn2)c1O	21 d	ATCC 25291	-	MIC	-	250 µM
Cc1ccc2nc(SCc3ccc(F)cc3)[nH]c2c1	-	MY330/88	-	MIC	-	62 µM
CCOc1cccc(NC(=O)OCC[NH+]2CCCC2)c1	-	MY330/88	-	MIC	-	>1000 µM
CC(O)c1cn([C@H]2C[C@H](O)[C@@H](CO)O2)c(=O)[nH]c1=O	-	ATCC 25291	-	EC90	-	5 µg/mL
O=C(NCc1cccnc1)c1cc(Br)cc(Br)c1O	21 d	ATCC 25291	-	MIC	-	1000 µM
CN[C@@H]1[C@H](O[C@H]2[C@H](O[C@H]3[C@H](O)[C@@H](O)[C@H](N=C(N)N)[C@@H](O)[C@@H]3N=C(N)N)O[C@@H](C)[C@]2(O)C=O)O[C@@H](CO)[C@H](O)[C@H]1O	-	103317	-	MIC	-	8 µg/mL
CCCCCCOc1cccc(NC(=O)OC(COCC)CN2CCCCC2)c1	-	MY330/88	-	MIC	-	250 µM
c1ccc(-c2ccc(CNc3ccc(-n4ccnc4)cc3)cc2)cc1	-	103317	-	MIC	-	4 µg/mL
O=c1[nH]c(=O)n([C@H]2C[C@H](O)[C@@H](CO)O2)cc1/C=C/Cl	-	ATCC 25291	-	EC50	-	>50 µg/mL
Cc1ccc(NC(=O)c2ncccc2O)cc1	-	CNCTC MY330/88	-	MIC	-	125 µM
CCCCCCCCCCOc1cccc(NC(=O)OCC[NH+]2CCCC2)c1	-	MY330/88	-	MIC	-	16 µM
Cc1cccc(C(N)=Nc2nc(-c3ccccn3)cc3ccccc23)c1	-	SK-10	-	MIC	-	2 µg/mL
CCCCCCOc1ccc(NC(=O)OC(C)CN2CCCCC2)cc1	-	MY330/88	-	MIC	-	16 µM
CO[C@@H]1[C@H](O)[C@@H](CO)O[C@H]1n1cc(C)c(=O)[nH]c1=O	-	ATCC 25291	-	EC50	-	>50 µg/mL
Cc1ccn2c(C(=O)NCc3ccc(N(C)C)cc3)c(C)nc2c1	-	101	resazurin	MIC	-	<2 µM
CC(C)(C)n1cc(C(=O)O)c(=O)c2cc(F)c(N3CCNCC3)nc21	-	LR114F	-	MIC	-	0.5 µg/mL
CCCCCOc1cccc(NC(=O)OCCN2CCCCC2)c1	-	MY330/88	-	MIC	-	32 µM
CCOc1ccc(NC(=O)OCCN(C)C)cc1	-	MY330/88	-	MIC	-	>1000 µM
c1ccc(-c2ccc(CNc3cccc(-n4ccnc4)c3)cc2)cc1	-	103317	-	MIC	-	1 µg/mL
O=C(NCc1cccc([N+](=O)[O-])c1)c1ncccc1O	-	CNCTC MY330/88	-	MIC	-	250 µM
COc1cccc(C(=O)NCc2ccccn2)c1O	21 d	ATCC 25291	-	MIC	-	1000 µM
CCCCOc1cccc(NC(=O)OC(C)CN2CCCCC2)c1	-	MY330/88	-	MIC	-	125 µM
CCCCOc1ccccc1NC(=O)OCCN(C)C	-	MY330/88	-	MIC	-	250 µM
Cc1ccn2c(C(=O)NCc3ccc(Oc4cccc(C(F)(F)F)c4)cc3)c(C)nc2c1	-	2151	resazurin	MIC	-	<2 µM
O=C(NCc1ccccc1)c1ccccc1O	21 d	ATCC 25291	-	MIC	-	125 µM